Reference: US11572377B2, “Nucleotide analogs” (The Regents of the University of California, priority 2015, dated 2023)

These molecules were tested on HPV-11 (assay: Low risk HPV assay: HPV origin plasmid replication in HEK 293 cells (qPCR)). Conditions: CC50/EC50, HPV-11 in HEK-293 cells.
Format: cell-based, human papillomavirus
Protocol: An origin-containing low risk or high risk HPV plasmid was co-transfected with homologous E1 and E2 protein expression vectors into HEK 293 cells. At 4 h post-transfection, cells were treated with test compound dilutions and then incubated for 48 h. HPV origin plasmid replication was detected after digestion with DpnI and exonuclease III to remove unreplicated transfected plasmids. Remaining replicated DNA was quantified by quantitative real time PCR (qPCR). In a parallel experiment in uninfected cells cytotoxicity was determined by trypan blue exclusion or CELLTITER-GLO® to find the concentration that reduced viable cell number by 50% (CC50). CC50 values were determined by trypan blue exclusion or CELLTITER-GLO® and the selectivity index calculated (Selectivity index=CC50/EC50). The low risk HPV tested was HPV-11, and the high-risk HPV tested was HPV-16 and HPV-18.

Compound | SI50
Nc1ccn(C[C@@H](CO)OCP(=O)(O)O)c(=O)n1 [Cidofovir, cidofovir, reference compound] | >7
CCCCCCCCCCCCCCCCCCOCCOP(=O)(COCCn1cnc2c(=O)[nH]c(N)nc21)OCc1ccc(OC)c(Cl)c1 (centres unmarked) [ODE-(3-Cl-4-OMe-Bn)-PMEG] | 12
CCCCCCCCCCCCCCCCCCOCCOP(=O)(COCCn1cnc2c(=O)[nH]c(N)nc21)OCc1cccc(Cl)c1 (centres unmarked) [ODE-(3-Cl-Bn)-PMEG] | 5
CCCCCCCCCCCCCCCCCCOCCOP(=O)(COCCn1cnc2c(=O)[nH]c(N)nc21)OCc1ccc(OC)c(F)c1 (centres unmarked) [ODE-(3-F-4-OMe-Bn)-PMEG] | 79
CCCCCCCCCCCCCCCCCCOCCOP(=O)(COCCn1cnc2c(=O)[nH]c(N)nc21)OCc1cccc(F)c1 (centres unmarked) [ODE-(3-F-Bn)-PMEG] | 7
CCCCCCCCCCCCCCCCCCOCCOP(=O)(COCCn1cnc2c(=O)[nH]c(N)nc21)OCc1ccc(C)cc1 (centres unmarked) [ODE-(4-Me-Bn)-PMEG] | 26
CCOC(=O)[C@H](C)NP(=O)(COCCn1cnc2c(=O)[nH]c(N)nc21)N[C@@H](C)C(=O)OCC [PMEG bisamidate, 9-[2-(bis-(ethyloxy-L-alaninyl)-phosphonomethoxy)ethyl]guanine] | >20
CCOC(=O)[C@H](C)NP(=O)(COCCn1cnc2c(=O)[nH]c(N)nc21)Oc1ccccc1 (some centres unmarked) [PMEG phenoxy amidate] | >13
